# According to US6071902A, “Method for treating excessive aggression” (Eli Lilly and Company, priority 1997, dated 2000):
# System: 5-HT-2 receptor
# Experiment: pharmacological studies, 5-HT-2 receptor activity
smiles,measurement,value
"Cc1cc2c(s1)Nc1ccccc1N=C2N1CCN(C)CC1 [olanzapine, 2-methyl-4-(4-methyl-1-piperazinyl)-10H-thieno[2,3-b][1,5]benzodiazepine]",activity at the 5-HT-2 receptor,active
